Measurements as given in US5882645, “Peptide compounds” (dated 1999).

How the values were obtained:
[1] = target: P5 presented by H-2^d (mouse)
[2] = target: P1 presented by H-2^b (mouse)
[3] = target: P5 presented by H-2^b (mouse)
[4] = target: P1 presented by H-2^k (mouse)
[5] = target: P5 presented by H-2^k (mouse)

T cells of Balb/c (H-2^d) mice primed in vivo with serovar B EBs (cells without a defined receptor)
Stimulation Index [1]: 4.1 SI

T cells of C57BL/10 (H-2^b) mice primed in vivo with serovar B EBs (cells without a defined receptor)
Stimulation Index [2]: < 1 SI | Stimulation Index [3]: 1.5 SI

T cells of CBA (H-2^k) mice primed in vivo with serovar B EBs (cells without a defined receptor)
Stimulation Index [4]: 1.45 SI | Stimulation Index [5]: 1.35 SI
